# Test system: VEEV TC-83 virus expressing a luciferase reporter gene (TC-83-luc)
# Format: cell-based, Venezuelan equine encephalitis virus
SMILES,"P3 ratio, EC50 of ketone analogue/EC50 of dioxolane analogue","SI, selectivity index (CC50/EC50)"
CN(C)c1cccc([C@H]2C[C@@]3(C)[C@@H](CC[C@@]3(O)C#C[Si](C)(C)C)[C@@H]3CCC4=CC(=O)CCC4=C32)c1 [Compound 54],0.80,–
CC[Si](C#C[C@]1(O)CC[C@H]2[C@@H]3CCC4=CC(=O)CCC4=C3[C@@H](c3ccc(N(C)C)cc3)C[C@@]21C)(CC)CC [Compound 34],0.91,–
COc1ccc(C#C[C@]2(O)CC[C@H]3[C@@H]4CCC5=CC(=O)CCC5=C4[C@@H](c4ccc(N(C)C)cc4)C[C@@]32C)cc1 [Compound 39],3.06,–
CN(C)c1ccc([C@H]2C[C@@]3(C)[C@@H](CC[C@@]3(O)C#Cc3ccccc3)[C@@H]3CCC4=CC(=O)CCC4=C32)cc1 [Compound 38],1.18,–
C[C@]12C[C@H](c3ccc(-c4ccccc4)cc3)C3=C4CCC(=O)C=C4CC[C@H]3[C@@H]1CC[C@@]2(O)C#C[Si](C)(C)C [Compound 53],1.56,–
CC(C)[Si](C#C[C@]1(O)CC[C@H]2[C@@H]3CCC4=CC(=O)CCC4=C3[C@@H](c3ccc(N(C)C)cc3)C[C@@]21C)(C(C)C)C(C)C [Compound 35],0.74,–
"CN(C)c1ccc([C@H]2C[C@@]3(C)[C@@H](CC[C@@]3(O)C#CC(F)(F)F)[C@@H]3CCC4=CC(=O)CCC4=C32)cc1 [Compound 9, Trifluoromethylmifepristone]",0.64,–
CN(C)c1ccc([C@H]2C[C@@]3(C)[C@@H](CC[C@@]3(O)C#C[Si](C)(C)C)[C@@H]3CCC4=CC(=O)CCC4=C32)cc1 [Compound 33],0.77,–
COc1ccc(C2C[C@@]3(C)[C@@H](CC[C@@]3(O)C#C[Si](C)(C)C)[C@@H]3CCC4=CC(=O)CCC4=C23)cc1 (stereo partly shown) [Compound 51],3.21,–
"C/C=C\[C@]1(O)CC[C@H]2[C@@H]3CCC4=CC(=O)CCC4=C3[C@@H](c3ccc(N(C)C)cc3)C[C@@]21C [Compound 7, Aglepristone, reference compound]",–,>3.95
